Here are results for 1 substance from PMC9982069, “Crystal structure of the membrane (M) protein from a bat betacoronavirus” (2023).

In the assay the target is batCOV5-M_(H155A), affinity- and SEC-purified (MST), Pipistrellus bat coronavirus HKU5, A3EXD6 1-220. Description: MST.

As to “batCOV5-N3 (residues 391-427) with C-terminal GFP-His10 (MST) H155A”, the Kd (commonly a measure of binding affinity in units of concentration) amounted to 3.6 µM.
